Experimental data: PubChem BioAssay AID1259414 (Drosophila RNAi Screening Center, 2018)
Aim: 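Host factors increasing or decreasing Wolbachia levels in cultured fly cells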 (primary screen). Cell system: Drosophila JW18 cells infected with Wolbachia. Reagents: long dsRNA against Drosophila genes, 0.25 µg dsRNA per well of a 384-well plate. Duration: 5 days. Conditions: cells persistently infected with Wolbachia before knock-down; no added drug. Detection: 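Imaged fluorescence in situ signal for Wolbachia 23S rRNA per DAPI-counted host cell, given as a robust z-score within each plate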. Direction: Wolbachia per cell robust z: higher = more Wolbachia per host cell than the plate typical. Active means: 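Active if absolute robust z reaches 1.5 in two or more of three replicates, leaving out multi- or no-target dsRNAs, genes unexpressed in JW18 and A1 wells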.
The deposit covers about 24,000 reagents; this is a random part of those that have a named target and a result. Over the whole deposit, about 1,210 (5%) got an active call. 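Inactive calls also include excluded dsRNAs with several or no targets, genes unexpressed in JW18, and well A1, regardless of score.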 Reagents against one gene are numbered here. A plus sign joins genes that one reagent is predicted to hit. No sequences are given here.

| target | reagent | Wolbachia per cell robust z, rep 1 | Wolbachia per cell robust z, rep 2 | Wolbachia per cell robust z, rep 3 | Call |
| --- | --- | --- | --- | --- | --- |
| CG42808 | 1 | -0.0936 | -0.214 | -0.00496 | inactive |
| EMC10 | 1 | -0.06 | -0.0343 | -0.66 | inactive |
| EMC4 | 1 | -1.29 | -0.283 | 0.615 | inactive |
| EMC4 | 2 | 0.796 | 0.979 | 0.447 | inactive |
| eIF3d2 | 1 | 1.09 | -1.01 | -0.876 | inactive |
| ox | 1 | -1.73 | -3.93 | -0.477 | active |
| Mi-2 | 1 | 3.6 | 3.88 | 3.05 | active |
| Mi-2 | 2 | 0.599 | 1.45 | 1.25 | inactive |
| Sodh1 | 1 | 0.731 | -0.89 | 1.43 | inactive |
| Sodh1 | 2 | -0.342 | 0.856 | 0.353 | inactive |
| Tsp42Ei | 1 | 0.199 | -5.56 | -7.32 | inactive |
| Tsp42Ei | 2 | 0.611 | 0.174 | 0.111 | inactive |
| Fen1 | 1 | -0.315 | 0.212 | 0.326 | inactive |
| tra | 1 | 1.04 | -8.27 | 1 | inactive |
| tra | 2 | 0.133 | 0.873 | 0.287 | inactive |
| Apc | 1 | 0.297 | -2.34 | -0.441 | inactive |
| SCCRO | 1 | -2.18 | -2.53 | -0.852 | active |
| SCCRO | 2 | 0.223 | 1.16 | 0.354 | inactive |
| dco | 1 | 0.901 | -0.345 | -1.16 | inactive |
| dco | 2 | 0.231 | 0.725 | 0.263 | inactive |
| CG17974 | 1 | -0.369 | -0.584 | -0.254 | inactive |
| CG42526 | 1 | -0.124 | 1.39 | -0.886 | inactive |
| CG6472 | 1 | 0.524 | 0.732 | -1.94 | inactive |
| CG14408 | 1 | 0.77 | 1.43 | -10.6 | inactive |
| CG5376 | 1 | 0.816 | 0.936 | 0.161 | inactive |
| CG5376 | 2 | -0.401 | -3.6 | 0.459 | inactive |
| CG9541 | 1 | -1.08 | -0.012 | -1.59 | inactive |
| CG9541 | 2 | -1.03 | -1.78 | 0.623 | inactive |
| CG13040 | 1 | -0.477 | -0.0572 | -1.21 | inactive |
| CG13040 | 2 | -0.00298 | -0.649 | -0.64 | inactive |
| CG43315 | 1 | -0.0191 | 0.415 | 0.722 | inactive |
| Oatp58Da | 1 | -2.94 | 0.23 | -0.429 | inactive |
| Oatp58Da | 2 | 0.0202 | 0.826 | -0.537 | inactive |
| nolo | 1 | -0.807 | 0.629 | -5.22 | inactive |
| nolo | 2 | -0.0489 | 0.633 | 1.76 | inactive |
| nolo | 3 | 0.155 | 0.31 | 0.874 | inactive |
| pigeon | 1 | 0.425 | 0.391 | 0.543 | inactive |
| He | 1 | -2.1 | -3.67 | -0.766 | inactive |
| PolA2 | 1 | 0.149 | -0.465 | -0.455 | inactive |
| fus | 1 | -1.55 | -2.91 | -0.308 | active |
| fus | 2 | 0.714 | 1.2 | -0.478 | inactive |
| klar | 1 | 1 | -5.8 | 0.317 | inactive |
| klar | 2 | -0.545 | -1.5 | 0.114 | inactive |
| klar | 3 | -0.279 | -0.577 | 0.618 | inactive |
| COX7B | 1 | -3.77 | -2.5 | -0.336 | active |
| ng3 | 1 | -1.34 | -0.46 | -0.307 | inactive |
| ng3 | 2 | -1.05 | 1.95 | -0.0356 | inactive |
| CG18304 | 1 | -0.651 | -0.0227 | 0.609 | inactive |
| CG18304 | 2 | 0.57 | -0.606 | -0.936 | inactive |
| CG18304 | 3 | 0.424 | -3.08 | -0.493 | inactive |
| Itgbn | 1 | -1.05 | -0.561 | -0.119 | inactive |
| CG10646 | 1 | 1.11 | 0.99 | -0.657 | inactive |
| hfw | 1 | -0.821 | -0.136 | 0.786 | inactive |
| hfw | 2 | -2.12 | -0.351 | -2.06 | active |
| CG12056 | 1 | -4.55 | -0.439 | 0.435 | inactive |
| SrpRbeta | 1 | -1.57 | 1.06 | -0.464 | inactive |
| SrpRbeta | 2 | -0.245 | -1.26 | 0.00605 | inactive |
| CanB2 | 1 | -2.21 | 0.597 | 0.0355 | inactive |
| CanB2 | 2 | 0.213 | -0.574 | -0.687 | inactive |
| CanB2 | 3 | -0.489 | -1.85 | -0.744 | inactive |
| CG42486 + CG14933 | 1 | -1.85 | -0.489 | 0.37 | inactive |
| sov | 1 | 3.77 | 3.23 | 2.6 | active |
| sov | 2 | 0.674 | 1.11 | 0.152 | inactive |
| l(3)05822 | 1 | 0.0397 | 2.12 | 1.98 | active |
| l(3)05822 | 2 | 0.275 | 0.915 | 0.88 | inactive |
| Mdh1 | 1 | 1.01 | 0.329 | 0.872 | inactive |
| Scgdelta | 1 | -1.45 | -2.45 | 0.0899 | inactive |
| CG43316 | 1 | 0.0816 | 0.581 | -1.8 | inactive |
| CG43316 | 2 | 0.617 | 0.185 | 0.0523 | inactive |
| Mitf | 1 | 0.489 | 0.523 | -0.723 | inactive |
| Mitf | 2 | -4.39 | -1.18 | -0.607 | inactive |
| Mitf | 3 | 0.243 | 0.364 | 0.971 | inactive |
| superdeath | 1 | -1.53 | 0.232 | 0.419 | inactive |
| superdeath | 2 | 0.486 | -0.0752 | -0.0353 | inactive |
| Jupiter | 1 | -1.66 | -1.24 | 0.0896 | inactive |
| Jupiter | 2 | -4.33 | 0.484 | -3 | active |
| Jupiter | 3 | -0.0328 | -1.7 | 0.275 | inactive |
| Jupiter | 4 | -0.19 | 0.71 | 0.767 | inactive |
| CG13563 | 1 | -1.46 | -1.6 | 0.213 | inactive |
| Arp10 | 1 | -4.29 | -0.289 | -1.74 | inactive |
| Arp10 | 2 | 0.128 | 1.76 | 0.738 | inactive |
| cocoon | 1 | -2 | 0.445 | 0.739 | inactive |
| cocoon | 2 | -0.0792 | 1.43 | -0.836 | inactive |
| Cht4 | 1 | 0.447 | 0.739 | 0.00916 | inactive |
| CG4945 | 1 | -1.47 | 0.738 | -0.825 | inactive |
| CG4945 | 2 | 0.144 | 0.292 | -0.201 | inactive |
| CG14995 | 1 | -0.0465 | -5.85 | -8.01 | active |

A portion taken from the entries so far, for reference:
| target | reagent | Wolbachia per cell robust z, rep 1 | Wolbachia per cell robust z, rep 2 | Wolbachia per cell robust z, rep 3 | Call |
| --- | --- | --- | --- | --- | --- |
| fus | 2 | 0.714 | 1.2 | -0.478 | inactive |
| klar | 1 | 1 | -5.8 | 0.317 | inactive |
| klar | 2 | -0.545 | -1.5 | 0.114 | inactive |
| klar | 3 | -0.279 | -0.577 | 0.618 | inactive |
| COX7B | 1 | -3.77 | -2.5 | -0.336 | active |
| ng3 | 1 | -1.34 | -0.46 | -0.307 | inactive |
| ng3 | 2 | -1.05 | 1.95 | -0.0356 | inactive |
| CG18304 | 1 | -0.651 | -0.0227 | 0.609 | inactive |
| CG18304 | 2 | 0.57 | -0.606 | -0.936 | inactive |
